Human monoclonal antibodies against the spike receptor-binding domain (heavy:light variable regions). IC50 against pseudoviruses bearing the spike of naturally observed variants; lower = stronger; >10 µg/ml means not reached at the top dose. No active / inactive call. The stated detection limit is 0.0005 µg/ml; values near or below 0.001 µg/ml lie at the floor of the assay.
Experiments:
Assay in all cases: pseudovirus neutralization IC50; higher = weaker neutralization
[1] = biological target: SARS-CoV-2 Omicron BA.1 spike pseudovirus
Experimental: (§1)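 Single-round VSV luciferase pseudovirus mixed with antibody dilutions for 1 h and put on Huh-7 cells for about a day; IC50 from the dose curve.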

[2] = biological target: SARS-CoV-2 Omicron BA.2 spike pseudovirus
Experimental: as §1

[3] = biological target: SARS-CoV-2 Omicron BA.2.75 spike pseudovirus
Experimental: as §1

[4] = biological target: SARS-CoV-2 Omicron BA.5 spike pseudovirus
Experimental: as §1

[5] = biological target: SARS-CoV-2 Omicron BQ.1.1 spike pseudovirus
Experimental: as §1

[6] = biological target: SARS-CoV-2 Omicron XBB spike pseudovirus
Experimental: as §1

[7] = biological target: SARS-CoV-2 early D614G spike pseudovirus
Experimental: as §1

Row | Binder | pseudovirus neutralization IC50 [1] [µg/mL] | pseudovirus neutralization IC50 [2] [µg/mL] | pseudovirus neutralization IC50 [3] [µg/mL] | pseudovirus neutralization IC50 [4] [µg/mL] | pseudovirus neutralization IC50 [5] [µg/mL] | pseudovirus neutralization IC50 [6] [µg/mL] | pseudovirus neutralization IC50 [7] [µg/mL]
1 | BD55-1334 (protein) chain 1: QVQLVESGGDLVKPGGSLRLSCATSGFTFSDYFVSWFRQAPGKGLEWISYIGHSGGSIFYADSVKGRFTISRDNAKNSLYLQMNSLRAEDTAVYYCARGDTYSYDTTGYSYWGQGTLVTVSS chain 2: QSALTQPPSASGSPGQSVTISCTGTSSDVGAYNYVSWYQQHPGKVPKLIMYEVTKRPSGVPDRFSGSKSGNTASLTVSGLQAEDEADYYCSSHAGSNNYVLFGGGTKLTVL | > 10 | > 10 | > 10 | > 10 | > 10 | > 10 | 0.001
2 | BD55-1339 (protein) chain 1: QVQLVQSGAEVKKPGASVKVSCKASGYSFSNHYINWVRQAPGQGLEWMGIINPSGGSTTYAQKFQGRVIMTRDTSTSTVYMELRSLRSDDTAVYFCARDRRYLDWYPSNYFDLWGQGTLVTVSS chain 2: DIQMTQSPSSLSASVGDRVTLTCRASQNIDNWLAWYQQKPGKAPKLLIYAASTLETGVPSRFSGSGSGTDFTLTISSLQPEDFATYYCQHADSFPPFGGGTKVEIR | 0.0376 | 0.0612 | 0.0324 | 0.0697 |  |  | 0.0137
3 | BD55-1343 (protein) chain 1: QVQLQESGPGVVKPSETLSLTCTVSAYSISSGYFWGWIRQPPGKGLEWIGSIYHTGSTYYNPSLKSRVTISLDTSKNQFSLNLSSVTAADTAMYYCVRDTEDGAEYWFDPWGQGTLVTVSS chain 2: DIQMTQSPSSVSASVGDRVTITCRASQGITSWLAWYQQKPGKAPKLLIYGASSLQSGVPSRFSGSGFGTDFTLTINTLQPEDFATYYCQQAHGFPRTFGQGTKVEIK | > 10 | > 10 | > 10 | > 10 | > 10 | > 10 | 1.43
4 | BD55-1346 (protein) chain 1: EVQMVESGGGLVQPGGSLRLSCAVSGFTVTRNYMSWVRQTPGRGLEWVSIIYPGGSTFYADSVKGRFTISRDNSNNTLFLQMNSLRIEDTAVYYCAREYRGHSWGQGTLVTVSS chain 2: DIQMTQSPSSLSASVGDRVTITCQASQGITNTLNWFQQKPGKAPKLLIYDASNLDSGVPSRFSGSGYGTDFTFTISSLQPEDIATYFCQQYDNLPITFGPGTKVNI | 0.0968 | 0.0841 | > 10 | 0.0538 | > 10 | > 10 | 0.0312
5 | BD55-1391 (protein) chain 1: QVQLQESGPGLVRPSQTLSLTCNASGVSISGGGYYWSWIRQHPGKGLEWIGYIHYSGNTYYNPSLKSRVSISVDASKNQFSLRLSSVTAADTAVYYCARVGDFDWLDYWGQGTLVTVSS chain 2: EIVLTQSPATLSLSPGERATLSCRASQSIGSYLAWFQQKPGQAPRLLIYDASYRATGIPARFSGSGSGTDFTLTISSLEPDDFAIYHCQQRFNWPPITFGQGTRLEIK | > 10 | > 10 | > 10 | > 10 | > 10 | > 10 | > 10
6 | BD55-1403 (protein) chain 1: QVQLVQSGAEMKKPGSSVKVSCQASGGTFSTYVISWVRQAPGQGLEWMGGIIPIFNTPHYAQKFQGRVTITADESTSTAYMELSSLTSGDTAVYYCARVSQWELLVYWGQGTLVTVSS chain 2: EIVLTQSPGTLSLSPGERATLSCRASQSINSNYLAWYQQKPGQAPRLLIYGASSRATGIPDRFSGSGSGTDFTLTISRLEPEDFAVYYCQQYGVSPRWTFGQGTKVEIK | > 10 | > 10 | > 10 | > 10 | > 10 | > 10 | 0.002
7 | BD55-1405 (protein) chain 1: QVQLQEWGPGLVKPSQTLSLTCTVSGGSISGTSYYWSWIRQPAGKGLEWIGRIYYRGSTYYNPSLKSRVTISVDTSKNQFSLRLNSVTAADTAVYYCARDSSLYSGYDSHDYWGQGTPVTVSS chain 2: DIQMTQSPSSLSASVGDRVTITCRASQTISNYLNWYQQRPGKAPKLLIYGAASLHSGVPSRFSVSGSGTDFTLTINNLQPEDFATYYCQQTYRTPPTFGGGTKVEIK | > 10 | > 10 | > 10 | > 10 | > 10 | > 10 | 0.0741
